Reference: PubChem BioAssay AID1224833 (University of Georgia, 2016)

- Purpose: 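Human genes whose knock-down alters rotavirus replication in monkey cells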 (primary screen)
- Cells: monkey MA104 kidney cells
- Knock-down reagent: siRNA pool against human genes, 50 nM
- Timing: 48 h knock-down before infection; read 24 h after infection
- Treatment: infection with rotavirus strain RV3 two days after transfection; infectious dose for this stage not given
- Detection: 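Rotavirus antigen per well by fluorescent immunoassay, normalised to non-targeting control wells on each plate and given as a standard z-score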
- Scale: z-score vs non-targeting control: higher = more rotavirus replication than with non-targeting control
- Hit rule: In these data the active calls have z-score vs non-targeting control at about -1 or lower, or at about 1 or higher
- Meaning of the calls: active = z-score beyond 1 either way; inactive = z-score within 1 of zero
The whole screen tested about 12,000 reagents; below is an unselected part. Of all reagents, about 5,600 (46%) are marked active. 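Active calls cover z-scores past 1 in both directions, so they include lowered as well as raised rotavirus replication.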 Entries without a mark were called inactive. Reagents against one gene are numbered here. Reagent sequences are not shown.

z-score vs non-targeting control, by gene symbol and reagent
OR4K1: #1 -0.35
RBMS3: #1 -0.992
CPSF3: #1 -0.91
SPANXN2: #1 -1.68 (active)
CATSPERB: #1 1.09 (active)
COG8: #1 -0.635
SCGN: #1 0.832
THAP7: #1 -0.816
SACK1H: #1 -0.471
TAS2R8: #1 -1.52 (active)
PRAMEF8: #1 -3.81 (active)
UNC50: #1 0.452
G3BP1: #1 -0.79
TDP2: #1 -2.07 (active)
ANTKMT: #1 1.57 (active)
SLC22A10: #1 -1.04 (active)
MORN4: #1 0.324
RCVRN: #1 -2.33 (active)
OPRM1: #1 -0.893
MBNL1: #1 -0.0926
FERMT1: #1 0.755
ZCRB1: #1 1.35 (active)
SLC45A4: #1 0.495
OR1J4: #1 -0.705
MTR: #1 -0.564
MPDU1: #1 -0.423
SBSPON: #1 1.62 (active)
CSF2: #1 2.3 (active)
POF1B: #1 -1.38 (active)
FNDC8: #1 -0.804
SPINK7: #1 -1.51 (active)
PICALM: #1 -0.493
FGD3: #1 -0.92
UNC119B: #1 -0.89
UXT: #1 -0.886
ZNF30: #1 -1.64 (active)
ARSL: #1 1.03 (active)
S100A6: #1 -0.681
CTNNA1: #1 -0.95
SPIRE1: #1 0.155
FRG1: #1 -0.272
CAMK2N2: #1 1.73 (active)
SAA4: #1 -1.75 (active)
CCDC178: #1 -0.814
UBAC1: #1 -2.14 (active)
KRT78: #1 1.16 (active)
ANO1: #1 0.757
FUCA2: #1 -0.674
IFNL2: #1 0.834
FGD1: #1 -2.54 (active)
HDAC5: #1 1.07 (active)
MISP: #1 0.145
MINDY2: #1 -1.15 (active)
CRY1: #1 -1.1 (active)
OR2L3: #1 -0.693
OR5H2: #1 -0.29
MICALL2: #1 -1.97 (active)
C3orf36: #1 -1.27 (active)
SEMA3E: #1 0.284
FNDC5: #1 0.988
LAMP2: #1 -1.52 (active)
OR8K5: #1 -1.06 (active)
COX8C: #1 -1.07 (active)
S1PR3: #1 1.35 (active); #2 1.55 (active)
COX7A1: #1 -0.982
KRT35: #1 -1.7 (active)
HPS4: #1 -0.737
MRTO4: #1 -0.378
OR6C1: #1 -1.81 (active)
SLC7A2: #1 -1.27 (active)
OR8U9: #1 0.105
CEACAM8: #1 -1.42 (active)
KRR1: #1 -1.63 (active)
SLC22A2: #1 -0.575
OR11A1: #1 -1.6 (active)
GPR6: #1 -0.693
ALOX12B: #1 1.22 (active)
SPINK4: #1 -0.75
MAP1LC3B: #1 0.38
DNM1: #1 0.548
F8A1: #1 0.07
DDOST: #1 -1.2 (active)
CFAP57: #1 -1.34 (active)
KLHL11: #1 1.15 (active)
NYNRIN: #1 -0.613
NETO1: #1 -0.852
TACC1: #1 0.3
UQCRB: #1 -2.62 (active)
ACER2: #1 0.273
L1CAM-AS1: #1 -0.776
ADAMTS20: #1 0.697
SKIC8: #1 -0.217
SPINK2: #1 -0.854
GNPTG: #1 -1.14 (active)
GGACT: #1 -1.78 (active)
EMD: #1 -1.37 (active)
SH3BGR: #1 -0.541
ADAMTS4: #1 0.988
MMS19: #1 -0.635
MXI1: #1 0.863
NR2C2: #1 -1.9 (active)
SHC4: #1 -0.747
FANK1: #1 -1.56 (active)
TGFB3: #1 -1.37 (active)
MDH1B: #1 -0.841
UCN3: #1 2.09 (active)
HHIPL2: #1 1.26 (active)
SLC22A6: #1 1 (active)
HOXD4: #1 -0.739

Reformatted: entries from further up.
gene symbol,reagent,z-score vs non-targeting control
NETO1,1,-0.852
TACC1,1,0.3
UQCRB,1,-2.62 (active)
ACER2,1,0.273
L1CAM-AS1,1,-0.776
